Test results from patent publication US11045520B2, “Compositions and methods for topical delivery of pharmaceutical agents” (priority 2016, dated 2021).

Test system: human skin explants or xenograted human skin
Assay: Confocal imaging of fluorescent dye distribution in ETA-desquamated skin (Example 2)
Details: toxin treated skin
Description: Human skin samples were fixed in 10% formaldehyde overnight and then embedded in paraffin. Samples were cut using a microtome to a thickness of 6 μM and baked on slides for 1 hour in a dry heat incubator at 58° C. Nuclei and eosinophillic structures were visualized by hematoxylin and eosin staining, respectively. The hematoxylin stains nuclei blue and eosins stains eosinophillic structures different shades of red. Histological images were taken with an inverted microscope.
The skin was either subjected to no treatment or application of ETA at 100 μg/mL.
To image the distribution of each dye in the human skin, human skin specimens were collected at 6, 12, 18 and 24 hours. Ordinary skin with intact S.C. and desquamated skin using ETA (methods previously described) were used. Frozen sections of human skin specimens were cut using a microtome to a thickness of 7 μM and DAPI was used for counter staining. Skin imaging was carried out at room temperature using Nikon confocal microscope equipped with NIS-Elements AR 3.10 software.

## Dextran
  penetration of the dye at 24 hours: deep penetration of the dye
